Tested on: HeLa cells
Experiment: Cellular import and localisation of tag-labelled peptides by confocal microscopy
Type: cell-based
Details: fluorescent-tagged peptide incubated with HeLa cells

Localization, nucleus:
MDRWLVKWWRKRHIIKKRKKRRQRRRK-Ahx5-FAM)G (Ahx5-FAM label, G; MDR26-4)
MDRWLVKWRKRHIRKKRRQRRRK-FAM)G (FAM label, G; MDR26-42)
MDRFLVKGAWRKRHIIKKRKKRRQRRRK-Ahx5-FAM)G (Ahx5-FAM label, G; MDr26-10)
MDRWLVKWKKKRKIRKKRRQRRRK-FAM)G (FAM label, G; MDR26-32)
MDRWLVKGAWRKRHIRKKRRQRRRK-FITC (FITC label; MDR24-43)

Reference: patent US9676822B2, “Oligopeptidic compounds and uses thereof” (APIM THERAPEUTICS AS, priority 2008, dated 2017)
